A mixed list of measured activities; the numbers were collected in NIAID ChemDB.

All rows: cytotoxicity tests; cell line: MDCK; endpoint: CC50

a–b is a range or a potency band. CCn is the concentration with n% toxicity to the cells. Rows are shuffled and stem from different studies.

| structure | result |
|---|---|
| CN1C2CCC23CC[C@@H](NC(=O)c2cc(Cl)ccc2O)CC13 | 100 µg/mL |
| Cc1ccc(O)c(C(=S)NC[C@@]2(C)C[C@@H](O)CC(C)(C)C2)c1 | 15 µg/mL |
| Nc1nc(Cl)c(N)c(NCC2(CO)CC(Cc3ccccc3)C2)n1 | 0.46–0.92 µM |
| CC(=O)N[C@H]1[C@H]([C@H](OC(=O)NCCCCCCNC(=O)CN(CCN(CC(=O)O)CC(=O)NCCCCCCNC(=O)O[C@@H]([C@@H]2OC(C(=O)O)=C[C@H](N=C(N)N)[C@H]2NC(C)=O)[C@H](O)CO)CC(=O)O)[C@H](O)CO)OC(C(=O)O)=C[C@@H]1N=C(N)N | >0.1 µg/mL |
| CCOc1ncn(-c2ccc(NC(=S)Nc3ncccn3)cc2)n1 | 8 µg/mL |
| Cc1ccc(O)c(C(=O)NCCN2[C@H](C)CC[C@@H]3CCCC[C@H]32)c1 | 20–30 µg/mL |
| Nc1ncc(N)c(NCC2(CO)CC(CCc3ccccc3)C2)n1 | 22–49 µM |
| CCCOc1ncn(-c2ccc(NC(=S)NC34CC5CC(CC(C5)C3)C4)cc2)n1 | 100 µg/mL |
| CCOC(=O)c1cc(C#N)c2[nH]c3ccccc3n2c1=O | >100 µg/mL |
| CC(C)CS[C@H]1C[C@@H](n2cnc3c(N)ncnc32)[C@H](O)[C@@H]1O | >200 µg/mL |
| CC(C)C1CC(CO)(CNc2cc(Cl)nc(N)n2)C1 | 2.5–6.3 µM |
| COc1ccccc1CNC(=O)C1=Cc2ccncc2CC1 | >316 µM |
| CCCOc1ncn(-c2ccc(NC(=S)NC3O[C@H](CO)[C@@H](O)[C@H](O)[C@H]3O)cc2)n1 | >200 µg/mL |
| Cc1ccc(O)c(C(=O)N[C@@H]2CCC34CCC3N(Cc3ccccc3)C4C2)c1 | 100 µg/mL |
| N#Cc1cc(C#N)c2[nH]c3ccccc3n2c1=O | 50 µg/mL |
| O=C(NCCN1CCC[C@@H]2CCCC[C@H]21)c1cc(Cl)ccc1O | 40–45 µg/mL |
| Cc1ccccc1C(=S)NC[C@@]1(C)C[C@@H](O)CC(C)(C)C1 | 2 µg/mL |
| CC(C)Oc1ccccc1CNC(=O)c1ccc2cnccc2n1 | 20 µM |
| Cc1cc(C)cc(C(=S)NC[C@@]2(C)C[C@@H](O)CC(C)(C)C2)c1 | 40 µg/mL |
| Cc1ccc(O)c(C(=O)NCCN2[C@H](C)CC[C@@H]3CCCC[C@@H]32)c1 | 35 µg/mL |
| Nc1nccc2c1ncn2[C@@H]1C[C@H](CO)[C@@H](O)[C@H]1O | >200 µg/mL |
| Cc1ccc(O)c(C(=O)NC2CCNCC2)c1 | 100 µg/mL |
| CC1(C)C[C@@H](O)C[C@](C)(CNC(=S)c2cccc(F)c2)C1 | 70 µg/mL |
| CC#Cc1cn([C@@H]2O[C@H](COP(=O)(Oc3ccccc3)Oc3ccc([N+](=O)[O-])cc3)[C@@H](O)[C@@H]2O)c(=O)[nH]c1=O | 110 µM |
| CCOc1ncn(-c2ccc(NC(=S)Nc3cnccn3)cc2)n1 | 20 µg/mL |
| C/C1=C\C=C\C2(C)C=C(CO[C@H]3O[C@H](CO)[C@H](O)[C@H](O)[C@H]3O)C(C)CC23OC([O-])C(C3=O)C(O)/C=C/C2(C)C=C(C=O)C(C)CC23OC([O-])C(C3=O)C(O)/C(C)=C/C=C/C2C=C(CO[C@H]3O[C@H](CO)[C@H](O)[C@H](O)[C@H]3O)C(C)CC23OC([O-])C(C3=O)C(O)/C=C/C2(C)C=C(C=O)C(C)CC23OC([O-])C(C3=O)C1O | >100 µg/mL |
| CCOc1ncn(-c2ccc(NC(=S)NC3O[C@H](CO)[C@@H](O)[C@H](O)[C@H]3O)cc2)n1 | >200 µg/mL |
| C/C1=C\C=C\C2(C)C=C(CO[C@H]3O[C@H](CO)[C@H](O)[C@H](O)[C@H]3O)C(C)CC23OC([O-])C(C3=O)C(O)/C=C/C2(C)C=C(CO)C(C)CC23OC([O-])C(C3=O)C(O)/C(C)=C/C=C/C2C=C(CO[C@H]3O[C@H](CO)[C@H](O)[C@H](O)[C@H]3O)C(C)CC23OC([O-])C(C3=O)C(O)/C=C/C2(C)C=C(CO)C(C)CC23OC([O-])C(C3=O)C1O | >100 µg/mL |
| CC1(C)C[C@H](O)C[C@](C)(CNC(=S)c2cccc(F)c2)C1 | 20 µg/mL |
| COC1(OC)CC(CO)(CNc2cc(Cl)nc(N)n2)C1 | 52 µM |
| N#Cc1cc(NC(=O)c2ccccc2)c(=O)n2c1[nH]c1ccccc12 | 22 µg/mL |
| Nc1ccnc(N)n1 | >910 µM |
| CC#Cc1cn([C@@H]2O[C@H](COP(=O)(O)Oc3ccc(OC)cc3)[C@@H](O)[C@@H]2O)c(=O)[nH]c1=O | >500 µM |
| C/C1=C\C=C\C2(C)C=C(CO)C(C)CC23OC([O-])C(C3=O)C(O)/C=C/C2(C)C=C(C=O)C(C)CC23OC([O-])C(C3=O)C(O)/C(C)=C/C=C/C2C=C(CO)C(C)CC23OC([O-])C(C3=O)C(O)/C=C/C2(C)C=C(C=O)C(C)CC23OC([O-])C(C3=O)C1O | >100 µg/mL |
| Nc1nc(Cl)cc(NCC2(CO)CC(CCCc3ccccc3)C2)n1 | 0.097–0.31 µM |
| CN1C2CCC23CC[C@H](NC(=O)c2cc(Cl)ccc2O)CC13 | 100 µg/mL |
| Cc1ccc(C)c(C(=S)NC[C@@]2(C)C[C@H](O)CC(C)(C)C2)c1 | 45 µg/mL |
| Nc1nccc(NCC2(CO)CC(CCc3ccccc3)C2)n1 | 11–18 µM |
| CCOC(=O)c1cc(C(=O)O)c(=O)n2c1[nH]c1ccccc12 | 200 µg/mL |
| C/C(=C\CC/C(C)=C/Cc1cc(O)cc(C)c1O)CC/C=C(\C)CC[C@@H](C)C(C)(C)O | 8.1 µM |
| CC#Cc1cn([C@@H]2O[C@H](COP(=O)(N[C@@H](C)C(=O)OC)Oc3ccccc3)[C@@H](O)[C@@H]2O)c(=O)[nH]c1=O | >500 µM |
| Cc1ccc(C(=S)NC[C@@]2(C)C[C@@H](O)CC(C)(C)C2)c(C)c1 | 30 µg/mL |
| N#Cc1cc(C(=O)O)c(=O)n2c1[nH]c1ccccc12 | 200 µg/mL |

For reference, 6 entries again:

{"structure": "Cc1ccc(O)c(C(=O)NCCN2[C@H](C)CC[C@@H]3CCCC[C@H]32)c1", "result": "20–30 µg/mL"}
{"structure": "Nc1nc(Cl)c(N)c(NCC2(CO)CC(Cc3ccccc3)C2)n1", "result": "0.46–0.92 µM"}
{"structure": "CC(C)Oc1ccccc1CNC(=O)c1ccc2cnccc2n1", "result": "20 µM"}
{"structure": "Cc1ccccc1C(=S)NC[C@@]1(C)C[C@@H](O)CC(C)(C)C1", "result": "2 µg/mL"}
{"structure": "CCCOc1ncn(-c2ccc(NC(=S)NC3O[C@H](CO)[C@@H](O)[C@H](O)[C@H]3O)cc2)n1", "result": ">200 µg/mL"}
{"structure": "CC(=O)N[C@H]1[C@H]([C@H](OC(=O)NCCCCCCNC(=O)CN(CCN(CC(=O)O)CC(=O)NCCCCCCNC(=O)O[C@@H]([C@@H]2OC(C(=O)O)=C[C@H](N=C(N)N)[C@H]2NC(C)=O)[C@H](O)CO)CC(=O)O)[C@H](O)CO)OC(C(=O)O)=C[C@@H]1N=C(N)N", "result": ">0.1 µg/mL"}